Measured values from several laboratories, pooled; numbers as filed in NIAID ChemDB.

Common to all: growth or infection tests; species: HIV-1; measure: EC50

ECn: concentration that inhibits the pathogen or its effect by n%. Blank or dashed fields: not listed here. Lines come from different laboratories, so protocols vary.

structure	strain	changes	cells	method	value
CC(C)C1=C2[C@H]3CC[C@@H]4[C@@]5(C)CC[C@H](OC(=O)[C@H]6C[C@@H](C(=O)O)C6(C)C)C(C)(C)[C@@H]5CC[C@@]4(C)[C@]3(C)CC[C@@]2(CCN(CCN(C)C)C(=O)c2cccc(Cl)c2)CC1=O	92HT599	-	MT-2	p24 / ELISA	<1 µM
Cc1ncc(-c2ccc(OCCOc3ccc(F)cc3Cl)cn2)c(N2CCC(C)(C)CC2)c1[C@H](OC(C)(C)C)C(=O)O	NL4-3	-	MT-2	luminescence	0.0009 µM
Nc1nc(=O)n([C@@H]2CC[C@H](CO)O2)cc1Cl	IIIB	-	CEM + CEM/O	-	>250 µM
CC[C@H]1COC[C@@H](N(C)C(=O)C(=O)N(C)C)c2nc(C(=O)NCc3ccc(F)cc3)c(O)c(=O)n21	-	N155H	HeLa P4-2	single cycle	0.001 µM
Nc1ccn([C@H]2CC[C@@H](CO)O2)c(=O)n1	NL4-3	Q41R	-	β-galactosidase	0.259 µM
CC(C)(C)OC(=O)N(CCCCCC(=O)Nc1ccn([C@H]2CS[C@@H](CO)O2)c(=O)n1)CCCCCN(Cc1ccccc1)C(=O)OC(C)(C)C	PAR	-	Macrophage + Monocytes/macrophages	syncytia	0.05 µM
CC(C)C1=C2[C@H]3CC[C@@H]4[C@@]5(C)CC[C@H](OC(=O)[C@@H]6C[C@H](C(=O)O)C6(C)C)C(C)(C)[C@@H]5CC[C@@]4(C)[C@]3(C)CC[C@@]2(CC(=O)NC(C)(C)c2ccccc2)CC1=O	92HT599	-	MT-2	p24 / ELISA	<1 µM
COc1ncn(-c2ncc(OC)c3c(C(=O)C(=O)N4CCn5c(nnc5-c5ccccc5)C4)c[nH]c23)n1	-	nef	HeLa CD4	luciferase / single cycle	<0.5 µM
CCCO[C@H](C(=O)O)c1c(C)ncc(-c2ccc(OCCOc3ccccc3Cl)cn2)c1N1CCC(C)(C)CC1	NL4-3	-	MT-2	luminescence	0.0007 µM
CC(C)C1=C2[C@H]3CC[C@@H]4[C@@]5(C)CC[C@H](OC(=O)[C@H]6C[C@@H](C(=O)O)C6(C)C)C(C)(C)[C@@H]5CC[C@@]4(C)[C@]3(C)CC[C@@]2(CC(=O)NCC(CCCCN)NC(=O)c2ccc(Cl)cc2)CC1=O	92HT599	-	MT-2	p24 / ELISA	<1 µM
O=c1sc2nc3c(c(=S)n2/c1=C/c1ccccc1)C1=C(CCC/C1=C\c1ccncc1)C(c1ccncc1)S3	-	-	T4	MTT	71.9 µM
CC(C)C1=C2[C@H]3CC[C@@H]4[C@@]5(C)CC[C@H](OC(=O)[C@H]6C[C@@H](C(=O)O)C6(C)C)C(C)(C)[C@@H]5CC[C@@]4(C)[C@]3(C)CC[C@@]2(CC(=O)NC[C@H](NC(=O)c2ccc(Cl)cc2)C(C)O)CC1=O	92HT599	-	MT-2	p24 / ELISA	<1 µM
Cc1ncc(-c2ccc(OCCn3cc(-c4ccccc4)cn3)cn2)c(N2CCC(C)(C)CC2)c1[C@H](OC(C)(C)C)C(=O)O	NL4-3	-	MT-2	luminescence	0.0037 µM
CCCCCCCCCCCCCC(=O)OC[C@H]1O[C@@H](n2cc(C)c(=O)[nH]c2=O)C[C@@H]1N=[N+]=[N-]	IIIB	-	SupT1	-	>100 µg/mL
CCOC1N=C2C3=C(N=CN2N1c1ccccc1)SC(c1ccncc1)C1=C3/C(=C/c2ccncc2)CCC1	-	-	T4	MTT	70.2 µM
CC(C)C1=C2[C@H]3CC[C@@H]4[C@@]5(C)CC[C@H](OC(=O)[C@H]6C[C@@H](C(=O)O)C6(C)C)C(C)(C)[C@@H]5CC[C@@]4(C)[C@]3(C)CC[C@@]2(CC(=O)NC(C)(C)c2ccc(Cl)cc2)CC1=O	92HT599	-	MT-2	p24 / ELISA	<1 µM
CCc1nc(C)n(CC)c1Oc1cc(Cl)cc(C#N)c1	NL4-3	-	HeLaP4	β-galactosidase / reporter gene	0.003 µM
CC(C)C1=C2[C@H]3CC[C@@H]4[C@@]5(C)CC[C@H](OC(=O)[C@H]6C[C@@H](C(=O)O)C6(C)C)C(C)(C)[C@@H]5CC[C@@]4(C)[C@]3(C)CC[C@@]2([C@@H](O)CNC[C@H]2CCCNC2)CC1=O	92HT599	-	MT-2	p24 / ELISA	<1 µM
CCCCCCCCCCCCCCCC(=O)OCC(COC(=O)CCC(=O)OC1CC(COP(=O)(O)OC2CC(COP(=O)(O)OC3CC(CO)OC3n3cnc4c(N)ncnc43)OC2n2cnc3c(N)ncnc32)OC1n1cnc2c(N)ncnc21)OC(=O)CCCCCCCCCCCCCCC	IIIB	-	SupT1 + Sup-T1	syncytia	<300 µM
CC[C@H]1COC[C@H](N(C)C(=O)C(=O)N(C)C)c2nc(C(=O)NCc3ccc(F)cc3)c(O)c(=O)n21	-	Q148R	HeLa P4-2	single cycle	0.001 µM
Cc1cc(CNCC[C@@]23CC[C@]4(C)[C@H](CC[C@@H]5[C@@]6(C)CC[C@H](OC(=O)[C@H]7C[C@@H](C(=O)O)C7(C)C)C(C)(C)[C@@H]6CC[C@]54C)C2=C(C(C)C)C(=O)C3)c(C)o1	92HT599	-	MT-2	p24 / ELISA	<1 µM
Cc1ccc(OCCNc2ccc(-c3cnc(C)c([C@H](OC(C)(C)C)C(=O)O)c3N3CCC(C)(C)CC3)cn2)c(C)c1	NL4-3	-	MT-2	luminescence	0.004 µM
[N-]=[N+]=NCCCCCCCCCCCC(=O)Nc1ccn([C@@H]2CS[C@H](COC(=O)CCCCCCCCCCCN=[N+]=[N-])O2)c(=O)n1	IIIB	-	SupT1	-	>100 µg/mL
COc1ccnc2[nH]cc(C(=O)C(=O)N3CCN(C(=O)c4ccccc4)C[C@H]3C)c12	ADA	-	Cf2Th-CD4+ CCR5+	luciferase	0.008 µM
Cc1c(C)c2c(c(C)c1OC(=O)OC1CC(COP(=O)(O)OC3CC(COP(=O)(O)OC4CC(CO)OC4n4cnc5c(N)ncnc54)OC3n3cnc4c(N)ncnc43)OC1n1cnc3c(N)ncnc31)CCC(C)(CCCC(C)CCCC(C)CCCC(C)C)O2	IIIB	-	SupT1 + Sup-T1	syncytia	<300 µM
CCc1nc(CCO)n(CC)c1Oc1cc(C#N)cc(C#N)c1	NL4-3	-	HeLaP4	β-galactosidase / reporter gene	0.01 µM
Cc1cc(CNC(=O)c2nc3n(c(=O)c2O)[C@@H](C)COC[C@H]3N(C)C(=O)C(=O)N(C)C)ccc1F	-	G140S/Q148H	HeLa P4-2	single cycle	0.012 µM
O=c1nc(NCc2ccc(-c3ccccn3)s2)c2cccnc2n1O	BaL	RT-R172K	PM1	-	0.15 µM
Cc1cc(CNC(=O)c2nc3n(c(=O)c2O)[C@H](C)COC[C@@H]3N(C)C(=O)C(=O)N(C)C)ccc1F	-	G140S/Q148H	HeLa P4-2	single cycle	0.011 µM
Nc1ccn([C@H]2CC[C@@H](CO)O2)c(=O)n1	IIIB	-	PBLC	cytopathic effect / XTT	0.00033 µg/mL
Cc1ncc(-c2cnc(OCC3CCC(C)CC3)c(F)c2)c(N2CCC(C)(C)CC2)c1[C@H](OC(C)(C)C)C(=O)O	NL4-3	-	MT-2	luminescence	0.0174 µM
Nc1ccn([C@H]2CS[C@@H](COC(=O)CCCCCNCCCCCNCc3ccccc3)O2)c(=O)n1	PAR	-	Macrophage + Monocytes/macrophages	syncytia	0.001 µM
O=C1c2c(O)cc(O)cc2O[C@]12c1c(cc(O)c3c1O[C@H](c1ccc(O)cc1)CC3)O[C@H]2c1ccc(O)cc1	IIIB	-	MOLT-4/HIV-1(IIIB) + MOLT-4	p24	>30 µg/mL
Nc1ccn([C@@H]2C=C(F)[C@H](CO)O2)c(=O)n1	BRU-184V	RT-M184V	PBMC	RT activity	<82 µM
C=C1CC[C@@H](OC(=O)CCC(=O)OCC2CC(OP(=O)(O)OCC3CC(OP(=O)(O)OCC4CC(O)C(n5cnc6c(N)ncnc65)O4)C(n4cnc5c(N)ncnc54)O3)C(n3cnc4c(N)ncnc43)O2)C/C1=C/C=C1\CCC[C@]2(C)[C@@H]([C@@H](C)/C=C/[C@H](C)C(C)C)CC[C@@H]12	IIIB	-	SupT1 + Sup-T1	syncytia	<300 µM
CCCc1nc(C)n(CC)c1Oc1cc(C#N)cc(C#N)c1	NL4-3	-	HeLaP4	β-galactosidase / reporter gene	0.013 µM
Cc1cc(CNC(=O)c2nc3n(c(=O)c2O)[C@H](C)COC[C@H]3N(C)C(=O)C(=O)N(C)C)ccc1F	-	Q148R	HeLa P4-2	single cycle	0.009 µM
Nc1nc(=O)n([C@@H]2C[C@@H](F)[C@H](CO)O2)cc1Cl	IIIB	-	CEM + CEM/O	-	>50 µM
NC(=O)NO	-	-	U-937	p24	<200 µM
O=C(Cc1nc(=O)n(O)c2ncccc12)NCc1ccccc1	BaL	RT-R172K IN-G189R	PM1	-	0.0005 µM
O=c1sc2nc3c(c(=S)n2/c1=C/c1ccc(Cl)cc1)C1=C(CCC/C1=C\c1ccncc1)C(c1ccncc1)S3	-	-	T4	MTT	71.6 µM
Cc1ccnc2c1NC(=O)c1cccnc1N2C1CC1	IIIB	-	A72	GFP / flow cytometry	0.014 µg/mL
CC(C)(C)C(=O)SCCOP(=O)(OCCSC(=O)C(C)(C)C)OC[C@H]1O[C@@H](n2cc(Cl)c(=O)[nH]c2=O)C[C@@H]1F	IIIB	-	CEM + CEM/O	-	2.1 µM
Cc1nc2ccc(C(=O)NC(C)(C)CNCC[C@@]34CC[C@]5(C)[C@H](CC[C@@H]6[C@@]7(C)CC[C@H](OC(=O)[C@H]8C[C@@H](C(=O)O)C8(C)C)C(C)(C)[C@@H]7CC[C@]65C)C3=C(C(C)C)C(=O)C4)cc2[nH]1	92HT599	-	MT-2	p24 / ELISA	<1 µM
CCN(C(=O)C(=O)N(C)C)[C@@H]1CC[C@H](OC)Cn2c1nc(C(=O)NCc1ccc(F)cc1)c(O)c2=O	-	N155H	HeLa P4-2	single cycle	0.002 µM
CC(C)C1=C2[C@H]3CC[C@@H]4[C@@]5(C)CC[C@H](OC(=O)[C@H]6C[C@@H](C(=O)O)C6(C)C)C(C)(C)[C@@H]5CC[C@@]4(C)[C@]3(C)CC[C@@]2(CCNC(=O)c2ccc(CN3CCOCC3)cc2)CC1=O	92HT599	-	MT-2	p24 / ELISA	<1 µM
Cc1ccc(OCCN(C)c2ccc(-c3cnc(C)c([C@H](OC(C)(C)C)C(=O)O)c3N3CCC(C)(C)CC3)cn2)cc1	NL4-3	-	MT-2	luminescence	0.0032 µM